In article PMC9820238, “Effect of B-NIPOx in Experimental Trypanosoma cruzi Infection in Mice” (International Journal of Molecular Sciences, 2022):

Tests used:
Experiment in all cases: NADH oxidation at […] nm
Type in all cases: biochemical, Trypanosoma cruzi
Conditions in all cases: 5 mM α-ketoisocaproate, 0.12 mM NADH, PBS pH 7.4, 37 °C
[1] = system: α-hydroxy acid dehydrogenase isozyme II (HADH-II), INC-5 strain
[2] = system: α-hydroxy acid dehydrogenase isozyme II (HADH-II), Compostela strain
[3] = system: α-hydroxy acid dehydrogenase isozyme II (HADH-II), Miguz strain
[4] = system: α-hydroxy acid dehydrogenase isozyme II (HADH-II), NINOA strain

CCCNC(=O)C(=O)O [NPOx]
< 20%: % residual activity at 1.25 mM [1] | % residual activity at 1.50 mM [2] | % residual activity at 1.50 mM [3] | % residual activity at 1.25 mM [4]

CC(C)NC(=O)C(=O)O [NIPOx]
< 20%: % residual activity at 0.50 mM [1] | % residual activity at 0.50 mM [2] | % residual activity at 0.50 mM [3] | % residual activity at 0.50 mM [4]
